Human monoclonal antibodies against the spike receptor-binding domain (heavy:light variable regions). IC50 against pseudoviruses bearing the spike of naturally observed variants; lower = stronger; >10 µg/ml means not reached at the top dose. No active / inactive call. The stated detection limit is 0.0005 µg/ml; values near or below 0.001 µg/ml lie at the floor of the assay.
B1: BD55-998 (protein)
chain 1: QVQLVQSGAELKKPGASVKVSCKASGYTFSGYGISWVRQAPGQGLEWMGWISAYNGDVNYAQTFQGRVTMTTDTSTNTAYMELRSLRSADTAVYYCARDGEQTNWNYVMVEPLFDLWGQGTLVTVSS
chain 2: QSVLTQPPSASGTPGQRVTISCSGSSSNIGSNFVFWYQQLPGAAPKLLIYRNNQRPSGVPDRFSGSKSGTSASLAISGLRSEDEADYYCAAWDDGLSDPYVFGTGTKVTVL
B2: BD-739 (protein)
chain 1: QVQLVQSGAEVKKPGSSVKVSCKASGGSFGSHAVAWVRQAPGQGLEWMGGLIPVFGTANYAQKFQGRVAIITDESSSTAYMELSSLRSEDTAVYYCARGYFDWVLDNWGQGTLVTVSS
chain 2: EIVLTQSPGTLSLSPGERATLSCRASQSVSSRYLAWYQQKPGQAPRLLIYGVSSRATGIPDRFSGSGSGTDFTLTISRLEPEDFAVYFCQQYGTSQVTFGGGTKVEIK
B3: BD-751 (protein)
chain 1: QVQLVESGGGVVQPGRSLRLSCAASIFTFSSYAMHWVRQAPGKGPEWLAVISDDGNAKFYADSVKGRFTISRDNSKNTLYLQMNSLRAEDTAVYYCARDGDDIRGYFFDDWGQGTLVTVSS
chain 2: DIQMTQSPSSLSASVGDRVTITCRASQGITNSLAWYQQKPGKAPKLLLYAASRLKSGVPSRFSGSGSGTDYTLTISSLQPEDFATYYCQQYYSTLALTFGGGTKVEVK
B4: BD-755 (protein)
chain 1: QVQLVQSGAEVKKPGSSVKVSCKASGGTFSSYSITWVRQAPGQGLEWMGRIFPILGVANHAQKFQGRVRITADKFTSTAYMELSSLRSEDAAIYYCARDSYGPGSQNNWFDPWGQGTLVTVSS
chain 2: QSVLTQPPSVSGAPGQRVTISCTGSDSNIGAGYDVHWYQQLPGTAPKLLISAYSNRPSGVPDRFSGSKSDTSASLAITGLQADDEADYYCQSYDSGLTGEIFGGGTKLTIL
B5: BD-643 (protein)
chain 1: EVQLVESGGGLVQPGGSLRLSCAASGFTFSYAYWVRQVPGKGLLWVSRVNDDGSTNYPDSVKGRFTISRDNARNTLFLQMNSLRAEDTAVYYCVRQSIMTSYYGVDVWGQGTTVTVAS
chain 2: DVVMTQSQLSLPVTLGQPASISCRSSQSLVHSDGNTYLNWFQQRPGQSPRRLIYKVSNRDSGVPDRFSGSGSGTDFTLKISRVEAEDVAVYYCMQGTHWPPTFGGGTKVEIK
B6: BD-771 (protein)
chain 1: EVQLVESGGGFVKPGGSLRLSCAASGFKFSDAWMNWVRQAPGKGLEWVGRIKSKADGQTTDYAAPVKGRFSISRDDSKNTLFLQIHNLESDDTAVYYCTTGALVESRYFDWFTGYYFDYWGQGTLVTVSS
chain 2: DIQMTQSPSSLSASVGDRVTITCRTSQGIYNYLAWYQQKPGKVPKLLIYGASTLQSGVPSRFSGSGSGTDFTLTISSLQPEDVATYYCQKYKSAPLTFGGGTKVEIK
B7: S2X35 (protein)
chain 1: QVQLVQSGAEVKKPGASVKVSCKASGYTFTNYGISWVRQAPGQGLEWMGWISAYKGNTNYAQKLQGRVTMTTDTSTSTAYMELRSLRSDDTAVYYCARPDYQVLGYDFWIGYYGMDVWGQGTTVIVSS
chain 2: QSVLTQPPSVSGAPGQRVTISCTGSSSNIGAGYDVHWYQQLPGTAPKLLIYGNTNRPSGVPDRFSGSKSGTSASLAITGLQAEDEADYYCQSYDSSLSGSEVVFGGGTKLTVL
B8: BD-791 (protein)
chain 1: QVQLVQSGAEVKKPGSSVKVSCKASGGTFSRFAISWVRQAPGQGLEWMGGIIPMFGTTNYAQKFQGRVSISADESTSTAYMELSSLRSEDTAVYYCATVTHRSGYYGHWYFDLWGRGTLVTVSS
chain 2: DIVMTQTPLSLSVTPGQPASISCKSSQSLLHSDGKTYLYWYLQKPGQSPQLLIYEVSNRFSGVPDRFSGSGSGTDFTLKISRVEAEDVGVYYCMQSIQPPPTFGGGTKVEIK
B9: BD-796 (protein)
chain 1: QVQLVQSGAEVKKPGSSVKVSCKASGGTFSSYAINWMRQAPGQGLEWMGGIIPILGIPNSAQKFQGRVTITADKSTSTAYMELSSLRSEDTAVYYCARMYNYDSSGLEADAFDIWGQGTMVTVSS
chain 2: QSVLTQPPSVSGAPGQRVTISCTGSSSNIGAGYDVHWYQQLPGTAPKLLIYGNSNRPSGVPDRFSGSKSGTSASLAITGLQAEDEADYYCQSYDSSLSGVVFGGGTKLTVL
B10: BD-801 (protein)
chain 1: DVQLVESGGGLVQPGGSRRLSCAASGFMFSSYWMNWVRQAPGKGLEWVASIKEDGSEKYYVDSVKGRFTISRDNAKNSLFLQMNSLRAEDTAVYYCARKCRGYYDRSGYYYKCAFDIWGQGTMVTVSS
chain 2: YVLTQPPSVSVAPGKTARITCGGNNLGTNSVHWYQQKPGQAPVLVMYYDSDRPSGIPERFSGSNSGNTATLTISRVDAGDEADYYCQVWDSSSDHWVFGGGTKLTVL
B11: BD55-316 (protein)
chain 1: EVQLVESGGGLVQPGGSLRLSCAASGFTFSSYYMNWVRQAPGKGLEWVANIKEDGSEKYYADSVRGRFTISRDNAKNSLFLQMSSLRAEDTAVYYCAGQLWLRGWFDPWGQGTLVSVSS
chain 2: NFMLTQPHSVSESPGKTVTISCTHSRGNIASNYVQWYQHRPDSAPTTVIYEDNQRPSGVPDRFSGSIDSSSNSASLTISGLKTEDEADYYCQSFDTSNHPSWIFGGGTKLTVL
B12: BD55-347 (protein)
chain 1: QVQLVESGGGVVQPGRSLRLSCAVSGFTFRSYAMHWVRQAPGKGLEWVAVTSHDGSDKYYADSVKGRFTISRDNSKNTLYLQVSSLRTEDTAVYFCARDNSGGYCRRSRCYSYSFPDNWGQGTLVTVSS
chain 2: NFMLTQPHSVSESPGKTVTISCTGSSGNIASSYVQWYQQRPGSAPTTVIYEDNQRPSGVPDRFSGSVDSSSNSASLTISGLKTADEADYYCQSFDSSHHVVFGGGTKLTVL

Assays:
Assay in all cases: pseudovirus neutralization IC50; higher = weaker neutralization
[1] = biological target: SARS-CoV-2 Omicron BA.1 spike pseudovirus
Procedure: (§1)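 Single-round VSV luciferase pseudovirus mixed with antibody dilutions for 1 h and put on Huh-7 cells for about a day; IC50 from the dose curve.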

[2] = biological target: SARS-CoV-2 Omicron BA.2 spike pseudovirus
Procedure: as §1

[3] = biological target: SARS-CoV-2 Omicron BA.2.75 spike pseudovirus
Procedure: as §1

[4] = biological target: SARS-CoV-2 Omicron BA.5 spike pseudovirus
Procedure: as §1

[5] = biological target: SARS-CoV-2 Omicron BQ.1.1 spike pseudovirus
Procedure: as §1

[6] = biological target: SARS-CoV-2 Omicron XBB spike pseudovirus
Procedure: as §1

[7] = biological target: SARS-CoV-2 early D614G spike pseudovirus
Procedure: as §1

Binder | pseudovirus neutralization IC50 [1] [µg/mL] | pseudovirus neutralization IC50 [2] [µg/mL] | pseudovirus neutralization IC50 [3] [µg/mL] | pseudovirus neutralization IC50 [4] [µg/mL] | pseudovirus neutralization IC50 [5] [µg/mL] | pseudovirus neutralization IC50 [6] [µg/mL] | pseudovirus neutralization IC50 [7] [µg/mL]
B1 | > 10 | > 10 | > 10 | > 10 | > 10 | > 10 | > 10
B2 | > 10 | > 10 | > 10 | > 10 | > 10 | > 10 | 0.469
B3 | 3.99 | > 10 | > 10 | > 10 | > 10 | > 10 | 0.473
B4 | 0.368 | 0.246 | 0.48 | > 10 | > 10 | > 10 | 0.08
B5 | > 10 | > 10 | > 10 | > 10 | > 10 | > 10 | 0.588
B6 | 0.0309 | 0.04 | > 10 | > 10 | > 10 | > 10 | 0.002
B7 | > 10 | > 10 | > 10 | > 10 | > 10 | > 10 | 0.0286
B8 | > 10 | > 10 | > 10 | > 10 | > 10 | > 10 | 0.104
B9 | 3.19 | 2.42 | 2.03 | > 10 | > 10 | > 10 | 0.25
B10 | 2.64 | > 10 | > 10 | > 10 | > 10 | > 10 | 0.103
B11 | > 10 | > 10 | > 10 | > 10 | > 10 | > 10 | 0.23
B12 | 2.46 | > 10 | > 10 | > 10 | > 10 | > 10 | 0.362
